From US20140315822A1 come the findings set out here.

In this assay the target is T1, PDZ domain of the human MAST2 protein (human), Q6P0Q8.
T1 chain: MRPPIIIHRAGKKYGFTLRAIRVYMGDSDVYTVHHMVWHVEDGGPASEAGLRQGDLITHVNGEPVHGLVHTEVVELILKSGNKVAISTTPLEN

As to SWESHKSGGQTRL [VIR13 (Neurovita 1)], the TΔS (entropy) was -1880, the n (stoechiometry) came out at 1 and the ΔH (enthalpy) is -9930.
